Plain letter strings leave the end groups untold.

This data set can be described thus: peptide made by a vendor (Fmoc solid-phase peptide synthesis). To be noted: whole synthesis.
Consider IPMTIAGLMF, for which the outcome is “Four peptides could not be purified to specifications”.

On to AGMLLLSLLL, for which the outcome was “Four peptides could not be purified to specifications”.

In the case of SVNMTSQVLL, the outcome was “Four peptides could not be purified to specifications”. For MPAILIALLV, the outcome is “Four peptides could not be purified to specifications”.

The values above are taken from US20050048073A1 (priority 2001, published 2005).
